These compounds were tested on DENV-2 NGC strain (assay: Plaque reduction assay (PRA) in Vero cells). Settings: best analogues of hit 3; ratio between CC50 and EC50.
Type: cell-based

Compared with Cc1ccc(NC(=S)NNC(=O)c2ccccn2)cc1 [Compound 64], CN(C)c1ccc(NC(=S)NNC(=O)c2ccccn2)cc1 [Compound 69] is lower in “SI (selectivity index)” value: 19 for the first, 6 for the second.

Cc1ccc(NC(=S)NNC(=O)c2ccc(C(C)(C)C)cc2)cc1 [Compound 72] was tested, and the “SI (selectivity index)” value was 75.
